PubChem BioAssay AID624099 – ICCB-Longwood – 2012
This is one part, drawn at random, of about 21,000 reagents tested. 497 of them (2.4%) were called active. 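Higher z means weaker E2 silencing; only reporter increases were scored, and knock-downs that hurt cell survival may mask genuine repressor factors.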 Reagents against one gene are numbered here.

Purpose: 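Human genes that papillomavirus E2 requires to repress the HPV18 LCR promoter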 (primary screen)
System: human C33A cervical carcinoma cells (HPV-negative) stably expressing BPV1 E2 and an HPV18 LCR luciferase reporter
Reagents: siRNA pool against human genes, 40 nM
Time to read-out: 72 h
Detection: 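Per-well luciferase luminescence, z-scored on each plate against the plate mean and SD with control wells left out, then averaged across three replicate plates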
Scale: mean z-score and z-score: higher = stronger reporter signal, weaker E2 silencing
Rule for the call: 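Mean z ≥ 2 together with z ≥ 2 in two or more of the three replicates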

gene symbol | reagent no. | mean z-score | z-score, replicate A | z-score, replicate B | z-score, replicate C | Call
YIF1B | 1 | 0.69 | 0.95 | 0.26 | 0.86 | inactive
SLAIN2 (SLAIN family member 2) | 1 | 0.23 | -0.29 | 0.07 | 0.89 | inactive
LINC00689 (long independently transcribed non-coding RNA 689) | 1 | -0.87 | -0.86 | -0.79 | -0.95 | inactive
HAO1 (hydroxyacid oxidase 1) | 1 | -0.09 | 0.05 | -0.06 | -0.27 | inactive
BASP1-AS1 (BASP1 antisense RNA 1) | 1 | 0.3 | 0.48 | -0.05 | 0.46 | inactive
FARP2 (FERM, ARH/RhoGEF and pleckstrin domain protein 2) | 1 | -0.59 | -0.51 | -0.84 | -0.42 | inactive
POTED (POTE ankyrin domain family member D) | 1 | 1.4 | 1.04 | 1.57 | 1.57 | inactive
LOC285097 | 1 | -0.22 | -0.61 | 0.13 | -0.18 | inactive
TESPA1 (thymocyte expressed, positive selection associated 1) | 1 | 0.27 | 0.14 | 0.61 | 0.05 | inactive
LOC402247 (retired record) | 1 | -0.49 | -0.33 | -0.63 | -0.5 | inactive
LHX5 (LIM homeobox 5) | 1 | 1.06 | 0.73 | 1.12 | 1.31 | inactive
GCLC (glutamate-cysteine ligase catalytic subunit) | 1 | 0.61 | 0.86 | 0.59 | 0.39 | inactive
ZNF391 (zinc finger protein 391) | 1 | 0.55 | 0.75 | 0.21 | 0.71 | inactive
CDRT15P3 (CDRT15 pseudogene 3) | 1 | 0.5 | 0.13 | 0.84 | 0.55 | inactive
SMC6 (structural maintenance of chromosomes 6) | 1 | -0.17 | -0.81 | 0.24 | 0.07 | inactive
NDUFB7 (NADH:ubiquinone oxidoreductase subunit B7) | 1 | -0.73 | -0.78 | -0.7 | -0.71 | inactive
ANKRD30BP2 (ANKRD30B pseudogene 2) | 1 | 1.64 | 1.92 | 1.75 | 1.26 | inactive
SPANXA1 | 1 | -1.08 | -1.17 | -1.19 | -0.88 | inactive
SMARCA5 (SNF2 related chromatin remodeling ATPase 5) | 1 | -0.22 | -0.13 | -0.19 | -0.35 | inactive
WRN (WRN RecQ like helicase) | 1 | 2.52 | 2.54 | 2.51 | 2.51 | active
BTBD6 (BTB domain containing 6) | 1 | -0.44 | -0.07 | -0.96 | -0.28 | inactive
CRACD (capping protein inhibiting regulator of actin dynamics) | 1 | -0.9 | -1.22 | -1.03 | -0.46 | inactive
C3orf38 (chromosome 3 open reading frame 38) | 1 | 1.14 | 0.88 | 1.54 | 1 | inactive
RPS7P10 (ribosomal protein S7 pseudogene 10) | 1 | -4.13 | -4.37 | -4.25 | -3.78 | inactive
TMEM59L (transmembrane protein 59 like) | 1 | 0.54 | 0.27 | 0.57 | 0.76 | inactive
OR13F1 (olfactory receptor family 13 subfamily F member 1) | 1 | 0.55 | 0.64 | 0.24 | 0.78 | inactive
MFSD2A (MFSD2 lysolipid transporter A, lysophospholipid) | 1 | -1.24 | -1.29 | -1.14 | -1.28 | inactive
WDR46 (WD repeat domain 46) | 1 | -0.53 | -0.57 | -0.72 | -0.3 | inactive
LOC388444 (retired record) | 1 | -0.67 | -0.58 | -0.76 | -0.68 | inactive
ERGIC1 (endoplasmic reticulum-golgi intermediate compartment 1) | 1 | -0.66 | -0.59 | -0.56 | -0.83 | inactive
MAOA (monoamine oxidase A) | 1 | -1.34 | -1.3 | -1.58 | -1.14 | inactive
MID2 (midline 2) | 1 | -0.28 | -0.57 | -0.05 | -0.22 | inactive
ATG4C (autophagy related 4C cysteine peptidase) | 1 | -0.46 | -0.22 | -0.68 | -0.48 | inactive
TWF2 (twinfilin actin binding protein 2) | 1 | 0.32 | 0.36 | 0.23 | 0.37 | inactive
NDUFAF3 (NADH:ubiquinone oxidoreductase complex assembly factor 3) | 1 | -0.67 | -0.67 | -0.46 | -0.89 | inactive
LOC339351 (retired record) | 1 | 0.5 | 0.5 | 0.05 | 0.96 | inactive
RPS27AP5 (ribosomal protein S27a pseudogene 5) | 1 | -2.98 | -2.7 | -3.49 | -2.73 | inactive
SLA (Src like adaptor) | 1 | 1.51 | 1.44 | 2.01 | 1.09 | inactive
B4GALT3 (beta-1,4-galactosyltransferase 3) | 1 | -0.98 | -1.04 | -0.9 | -1 | inactive
ABHD6 (abhydrolase domain containing 6, acylglycerol lipase) | 1 | 0.86 | 1.21 | 0.65 | 0.74 | inactive
SLC29A1 | 1 | -0.62 | -0.58 | -0.63 | -0.66 | inactive
LOC389301 (retired record) | 1 | 0.8 | 0.94 | 0.93 | 0.54 | inactive
APOBEC2 (apolipoprotein B mRNA editing enzyme catalytic subunit 2) | 1 | -0.49 | -0.26 | -0.44 | -0.78 | inactive
ERFE (erythroferrone) | 1 | 0.69 | 0.73 | 0.82 | 0.51 | inactive
SF3B3 (splicing factor 3b subunit 3) | 1 | -2.71 | -2.66 | -2.73 | -2.74 | inactive
PEX26 (peroxisomal biogenesis factor 26) | 1 | -0.19 | 0.06 | -0.44 | -0.19 | inactive
TDRD9 (tudor domain containing 9) | 1 | -0.35 | -0.32 | -0.38 | -0.34 | inactive
EBPL (EBP like) | 1 | 0.17 | 0.61 | 0.02 | -0.12 | inactive

As entered above:
For “z-score, replicate A”, SLA (Src like adaptor) has 1.44
For “Call”, OR13F1 (olfactory receptor family 13 subfamily F member 1) has inactive
For “z-score, replicate A”, EBPL (EBP like) is entered as 0.61
Under “z-score, replicate A”, LOC285097 has -0.61
Value for NDUFB7 (NADH:ubiquinone oxidoreductase subunit B7) in “z-score, replicate C”: -0.71
Under “z-score, replicate B”, HAO1 (hydroxyacid oxidase 1) is entered as -0.06

Additional results:
gene symbol | reagent no. | mean z-score | z-score, replicate A | z-score, replicate B | z-score, replicate C | Call
AQP7P3 (aquaporin 7 pseudogene 3) | 1 | -0.3 | -0.06 | -0.62 | -0.22 | inactive
TNPO3 (transportin 3) | 1 | 0.49 | 0.49 | 0.45 | 0.53 | inactive
LOC343221 (retired record) | 1 | -1.16 | -1.37 | -0.91 | -1.2 | inactive
CLPB (ClpB family mitochondrial disaggregase) | 1 | 0.14 | 0.09 | 0.46 | -0.12 | inactive
OLFML2A (olfactomedin like 2A) | 1 | -2.31 | -2.15 | -2.57 | -2.19 | inactive
SFN (stratifin) | 1 | 0.04 | 0.39 | -0.36 | 0.11 | inactive
LINC00906 (long independently transcribed non-coding RNA 906) | 1 | -0.01 | 0.08 | 0.27 | -0.37 | inactive
RIPOR3 (RIPOR family member 3) | 1 | -0.09 | 0.01 | -0.02 | -0.26 | inactive
RIPOR3 (RIPOR family member 3) | 2 | -0.39 | -0.54 | -0.5 | -0.13 | inactive
TBL2 (transducin beta like 2) | 1 | 1.21 | 1.46 | 1.18 | 0.99 | inactive
NDUFAF2 (NADH:ubiquinone oxidoreductase complex assembly factor 2) | 1 | -0.17 | -0.36 | 0.28 | -0.42 | inactive
C5 (complement C5) | 1 | -0.7 | -0.66 | -0.49 | -0.94 | inactive
STK4 (serine/threonine kinase 4) | 1 | 0.65 | 0.93 | 0.91 | 0.12 | inactive
TIMCC (TIM double twin CX3C motif chaperone) | 1 | 0.47 | 0.74 | 0.18 | 0.5 | inactive
MOCOS (molybdenum cofactor sulfurase) | 1 | 0.05 | -0.03 | 0.1 | 0.07 | inactive
ZKSCAN1 (zinc finger with KRAB and SCAN domains 1) | 1 | 0.58 | 0.89 | 0.36 | 0.48 | inactive
NAIF1 (nuclear apoptosis inducing factor 1) | 1 | 1.42 | 1.75 | 1 | 1.52 | inactive
PRND (prion like protein doppel) | 1 | -1.65 | -1.63 | -1.45 | -1.86 | inactive
ZNF624 (zinc finger protein 624) | 1 | -1.1 | -0.89 | -0.73 | -1.68 | inactive
SOX1 (SRY-box transcription factor 1) | 1 | 0.93 | 0.83 | 0.9 | 1.07 | inactive
SHBG (sex hormone binding globulin) | 1 | 0.1 | 0.08 | 0.38 | -0.18 | inactive
LRMDA (leucine rich melanocyte differentiation associated) | 1 | 0.26 | 0.2 | 0.23 | 0.36 | inactive
ADAMDEC1 (ADAM like decysin 1) | 1 | 0.65 | 0.86 | 0.56 | 0.53 | inactive
PARP12 (poly(ADP-ribose) polymerase family member 12) | 1 | 0.17 | 0.3 | 0.05 | 0.16 | inactive
LOC391445 (retired record) | 1 | 0.35 | 0.57 | 0.77 | -0.31 | inactive
